Measured values published in the supplement of paper PMC9931576.
Human monoclonal antibodies against the spike receptor-binding domain (heavy:light variable regions). IC50 against pseudoviruses bearing the spike of naturally observed variants; lower = stronger; >10 µg/ml means not reached at the top dose. No active / inactive call. The stated detection limit is 0.0005 µg/ml; values near or below 0.001 µg/ml lie at the floor of the assay.

B1: BD56-097 (protein)
chain 1: QVQLVESGGGVVQPGRSLRLSCAVSGFTFSNYSMHWVRQAPGKGLEWVAVILDDGSFKNYVDSVKGRFSISRDNSRKTVYLQMNSLRVEDTAVYYCARDYGVTTTYFDYWGQGTLVTVSS
chain 2: DIQMTQSPSSLSASVGDRVTISCRASQSIRSDLNWYQRQPGKAPKLLIYVASNLQNGVPSRFSGSGSGTDFTLTISNLQPEDFATYYCQQSYSTPPWTFGQGTTVEIK
B2: BD56-098 (protein)
chain 1: QVQLQQWGAGLVKPSETLSLTCAVYGGSLSGYYWSWIRQSPGKGLEWIGEINDSGSTNYNPSLKSRVTISVGTSKNHFSLKLSSVTAADTAVYYCAREVHYDTLTGQPLPGSFDAFDIWGQGTMVTVSS
chain 2: QSVLTQPPSASGTPGQRVTISCSGSSSNIGINSVNWYQQFPGTAPKLLIYSNDQRPSGVPGRFSGSKSGTSASLAISGLQSEDEADYYCAAWDESLNGVVFGGGTKLTVL
B3: BD56-099 (protein)
chain 1: QVQLQESGPGLVKPSQTLSLTCTVSGGSISSGSYYWSWIRQPAGKGLEWIGRIYPTGSTNYNPSLKSRVAISVDTSKKQFYLKLSSVTAADTAVYYCVRERNPTIFEVADDLPEVCWGQGTLVTVSS
chain 2: DIQMTQSPSSLSASVGDRVTITCQASQDISNYLNWYQQKPGKAPKLLIYDASNLETGVPSRFSGSGSGTDFTFTISSLQPEDIATYYCQQLDNLVTFGGGTKVEIK
B4: BD56-100 (protein)
chain 1: EVQLLVSGGGLVRPGGSLRLSCAASGFTFSTCAMTWVRQAPGKGLECVSVIHGGGNSTYYAESVRGRFTIYRDTSKNTLYLQMNSLRADDTAIYYCAKSPQARTTLELRGAPDYFDFWGQGTLVSVSS
chain 2: SYVLTQPPSVTVAPRQTARVTCGGDDIGSKSVHWYQQKPGQAPVLVIYYDNDRPSGIPERFSGSNSGNTATLTISRVEAGDEADYYCQVWDGTSAHFWVFGGGTKLTVL
B5: BD56-101 (protein)
chain 1: EVQLVESGGALVQPGGSLRLSCAASGFTFNDYDLHWVRQATGKGLEWVSGTGTAGDTYYSDSVKGRFTISRENAKNSLYLQMNGLRAADTAVYYCARGDSSSWEYYFDYWGQGTLVTVSS
chain 2: DIQMTQSPSSLSASVGDRVSITCRASQSIGSYLNWYQLRPGKAPKLLIYAASSLQSGVPSRFTGSGSGTYFTLTISSLQPEDFATYCCQQSYSAPPWTFGQGTKVEVK
B6: BD56-104 (protein)
chain 1: QVQLVQSGAEVKTPGSSVKVSCKASGGTFGSHSITWVRQAPGQGLEWMGRVIPILGIPDFAESFQGRVAITADRSTSTAHMELSRLRSEDTAVYYCARDVGYSGSGSSNYFDSWGQGTLVTVSS
chain 2: QSVLTQPPSVSGAPGQRVTISCTGSNSNIGAGYDVHWYRQLPGTAPKLLIYVNNNRPSGVPDRFSGSRSGASASLAITGLQAEDEAEYYCQSYDSSLSGSIFGGGTKLTVL
B7: BD56-107 (protein)
chain 1: EVHLVESGGGLVQPGGSLRLSCAVSGFTFSTYDMHWVRQVAGKGLEWVAGIGTAGDTYYLDSVKGRFTISRENAENSLYLQMNSLRAGDTAVYYCTRANFNFLTGYTPHFDYWGQGTLVTVSS
chain 2: DIQMTQSPSSLSASVGDRVTITCRASQYISTNLNWYQQKPGRAPKLLIYAASNLQSGVPSRFSGSGSGTDFTLTISSLRPEDFAIYHCQQSHSTPGLTFGQGTRLEIK
B8: BD56-111 (protein)
chain 1: QVHLVESGGGVVQPGRSLRLACAASGFTFSSYSMHWVRQAPGKGLEWVAVILYDGSYRDYTDSVKGRFTISRDNSKNTLYLQLNSPRPEDTAVYYCARDEGATVTHFDYWGQGTLVTVS
chain 2: DIQMTQSPSSLSASVGDRVTITCRASQSVRRDVNWYQQKSGKAPKLLIYSASSVQSGVPSRFSGSGSGTEFTLTISSLQPEDFATYYCQQSYNTPPWTFGQGTKVEIK
B9: BD56-112 (protein)
chain 1: QVQLVQSGAEVKKPGSSVKVSCKASESTFSSYAINWVRQAPGQGLEWMGGIVPIFGTTDYAQKFEGRVTITADESTSTAYMDLSSLRSDDTALYYCARDLEYSPLYGMDVWGQGTTVTVSS
chain 2: DIQLTQSPSTLSASVGDRVTITCRPSQSISTYLNWYQQKPGSNPKLLIYAASTLQSGVPSRFSGSGSGTGFTLTISSLQPEDFATYYCQQSYSTPRTFGQGTKLEIK
B10: BD56-113 (protein)
chain 1: QVQLVQSGAEVKKPGSSVKVSCKASGGTFNNYPISWVRQAPGQGLEWMGSIIPIIGIATYAQKFQGRVTITADKSTSTAYMQLSSLRSEDTAVFYCARGVGYSGSGSSNYFDYWGQGTLVTVSS
chain 2: QSVLTQPPSVSGAPGQRVTISCTGSNSNIGAGYDVHWYRQLPGTAPKLLIYVNNNRPSGVSDRFSGSKSGTSASLAITGLQAEDEADYYCQSYDSSLIGSVFGGGTKLTVL
B11: BD56-114 (protein)
chain 1: EVQLLVSGGGLVQPGGSLRLSCAASGFTFSSCAMTWVRQAPGKGLECVSVIYGGGNSTYYADSVKGRFTIYRDTSKNTLYLQMNSLRADDTAIYYCAKSPQPRTTLELRGAPDYFDFWGQGTLVSVSS
chain 2: SYVLTQPPSVTVAPRQTARVTCGGDDIGSKSVHWYQQKPGQAPVLVIYYDNDRPSGIPERFSGSNSGNTATLTISRVEAGDEADYYCQVWDGTSAHFWVFGGGTKLTVL
B12: BD56-121 (protein)
chain 1: EVQLVESGGGLVKPGGSLRLSCAASGFSFNNYEMNWVRQAPGKGLEWVSYISRSGGPIYYADSVKGRFTISRDNAKNSLYLQMNSLRVEDTAVYYCARDFDWLLDDEPGAFDIWGQGTMVTVSS
chain 2: EIVLTQSPGTLSLSPGERATLSCRASQSVSSTYLAWYQQKPGQAPRLLIYGALSRAAGIPDRFSGSGSGTDFTLTISRLEPEDFAVYYCQQYGSSALTFGGGTKVEIK

target: SARS-CoV-2 Omicron BA.1 spike pseudovirus; assay: pseudovirus neutralization IC50; higher = weaker neutralization
Description: (§1)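 Single-round VSV luciferase pseudovirus mixed with antibody dilutions for 1 h and put on Huh-7 cells for about a day; IC50 from the dose curve.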

Row | Binder | pseudovirus neutralization IC50 [µg/mL]
1 | B1 | > 10
2 | B2 | 0.0825
3 | B3 | 0.0507
4 | B4 | > 10
5 | B5 | > 10
6 | B6 | 0.0156
7 | B7 | > 10
8 | B8 | 3.22
9 | B9 | 0.427
10 | B10 | 0.693
11 | B11 | > 10
12 | B12 | > 10

target: SARS-CoV-2 Omicron BA.2 spike pseudovirus; assay: as above
Description: as §1

Row | Binder | pseudovirus neutralization IC50 [µg/mL]
13 | B1 | > 10
14 | B2 | 0.0575
15 | B3 | 0.031
16 | B4 | > 10
17 | B5 | > 10
18 | B6 | 0.0138
19 | B7 | 8.43
20 | B8 | 3
21 | B9 | 0.251
22 | B10 | 0.561
23 | B11 | > 10
24 | B12 | > 10

target: SARS-CoV-2 Omicron BA.2.75 spike pseudovirus; assay: as above
Description: as §1

Row | Binder | pseudovirus neutralization IC50 [µg/mL]
25 | B1 | > 10
26 | B2 | 0.0532
27 | B3 | 0.0433
28 | B4 | > 10
29 | B5 | > 10
30 | B6 | 0.0142
31 | B7 | > 10
32 | B8 | 2.97
33 | B9 | 0.218
34 | B10 | 0.464
35 | B11 | > 10
36 | B12 | > 10

target: SARS-CoV-2 Omicron BA.5 spike pseudovirus; assay: as above
Description: as §1

Row | Binder | pseudovirus neutralization IC50 [µg/mL]
37 | B1 | > 10
38 | B2 | > 10
39 | B3 | > 10
40 | B4 | > 10
41 | B5 | > 10
42 | B6 | 0.0187
43 | B7 | 8.63
44 | B8 | 2.96
45 | B9 | 3.59
46 | B10 | 2.37
47 | B11 | > 10
48 | B12 | > 10

target: SARS-CoV-2 Omicron BQ.1.1 spike pseudovirus; assay: as above
Description: as §1

Row | Binder | pseudovirus neutralization IC50 [µg/mL]
49 | B1 | > 10
50 | B2 | > 10
51 | B3 | > 10
52 | B4 | > 10
53 | B5 | > 10
54 | B6 | 0.836
55 | B7 | > 10
56 | B8 | 7.3
57 | B9 | > 10
58 | B10 | 7.54
59 | B11 | > 10
60 | B12 | > 10

target: SARS-CoV-2 Omicron XBB spike pseudovirus; assay: as above
Description: as §1

Row | Binder | pseudovirus neutralization IC50 [µg/mL]
61 | B1 | > 10
62 | B2 | > 10
63 | B3 | > 10
64 | B4 | > 10
65 | B5 | > 10
66 | B6 | 1.76
67 | B7 | > 10
68 | B8 | 5.38
69 | B9 | > 10
70 | B10 | > 10
71 | B11 | > 10
72 | B12 | > 10

target: SARS-CoV-2 early D614G spike pseudovirus; assay: as above
Description: as §1

Row | Binder | pseudovirus neutralization IC50 [µg/mL]
73 | B1 | > 10
74 | B2 | 0.0257
75 | B3 | 0.0566
76 | B4 | > 10
77 | B5 | > 10
78 | B6 | 0.0182
79 | B7 | 1.71
80 | B8 | 1.7
81 | B9 | 0.463
82 | B10 | 0.868
83 | B11 | > 10
84 | B12 | > 10
